Anti-infective test results gathered from many reports (values: NIAID ChemDB through PubChem).

Common to all: whole-cell or culture tests; agent: HIV-1; method: luciferase; read-out: EC50

Conditions beyond the fields shown may differ between rows. ECn: concentration that inhibits the pathogen or its effect by n%. Two numbers with a dash give a range or band. An empty or dashed field is not shown.

smiles	changes	strain or isolate	conditions	cells	value
CSc1ccccc1NC(=O)CSc1nnc(C)n1-c1ccc(C)cc1	RT-K103N Y181C	NL4-3		HeLa + HeLa-JC53	0.12 µM
COc1cnc(-n2cnc(C)n2)c2[nH]cc(C(=O)C(=O)N3CCN(C(=O)c4ccccc4)CC3)c12		NL4-3		U-87	0.0024 µM
COc1cc2c(cc1Cc1ccc(F)cc1F)c(=O)c(C(=O)O)cn2[C@H](CO)C(C)(C)C		NL4-3	pseudotyped	HeLa	<0.01 µM
CCCN=C(c1ccccc1)N1CCN(C(=O)C(=O)c2c[nH]c3ccccc23)CC1		Luciferase reporter virus		HeLa(CD4+) + HeLa	>0.5 µM
CCO[C@H]1O[C@H](OCC)C2/C1=C\C/C=C(\C)C[C@@H](O)[C@H]2[C@H](C)CCC=C(C)C			pseudotyped	293T	>30 µM
C[C@@H]1CN(C(=O)c2ccccn2)CCN1C(=O)C(=O)c1c[nH]c2c(F)ccc(F)c12				HeLa + HELA CD4+/CCR5	<10 µM
Cc1cc(C)c(Oc2nc(Nc3ccc(C#N)cc3)nc3c(C)csc23)c(C)c1				HeLa	0.01–0.1 µM
COc1cccc(C(=O)[C@@H]2[C@@H](c3ccc4c(OC)c(C)c(OC)cc4c3)[C@](C#N)(C(N)=O)[C@H]3CCc4cc(C)ccc4N23)c1				293T	>60 µM
C[C@@H]1CN(C(=O)Cn2cc(N3CCCS3(=O)=O)n3c(=O)c(O)c(C(=O)NCc4ccc(F)cc4S(=O)(=O)N(C)C)nc23)C[C@@H](C)O1	QHGS			HEK 293	<0.5 µM
Cc1ccc2c(c1)CC[C@H]1N2[C@H](C(=O)c2ccccc2)[C@@H](c2ccc(Cl)cc2)[C@]1(C#N)C(N)=O				293T	13.5 µM
COc1ccnc2[nH]cc(C(=O)C(=O)N3CCN(C(=O)c4ccccc4)C[C@H]3C)c12		QH0692		TZM-bl	0.02 µM
Cc1nc(C(=O)N2CCN(C(=O)C(=O)c3c[nH]c4cccc(F)c34)CC2)cs1				HeLa + HELA CD4+/CCR5	<10 µM
CN(C)c1ccc(-n2c(SCC(=O)Nc3ccc(S(N)(=O)=O)cc3Cl)nnc2C(F)(F)F)c2ccccc12	RT-Y188L	NL4-3		HeLa + HeLa-JC53	0.007 µM
COc1nc2c(cc1CCc1ccc(F)cc1F)c(=O)c(C(=O)O)cn2[C@H](CO)C(C)(C)C		NL4-3	pseudotyped	HeLa	>0.1 µM
COc1ccc(Br)c2[nH]cc(C(=O)C(=O)N3CCN(/C(=N/S(C)(=O)=O)c4ccccc4)CC3)c12		Luciferase reporter virus		HeLa(CD4+) + HeLa	<0.5 µM
C=C1CC[C@@H](O)[C@@]2(C)CCC3=C(C(C)C)[C@@H](OC(C)=O)C[C@]3(C)C[C@]12O			pseudotyped	293T	>30 µM
Cc1ccc2cccc(-n3c(SCC(=O)Nc4ccc(S(N)(=O)=O)cc4Cl)nnc3C(F)(F)F)c2n1	RT-Y188L	NL4-3		HeLa + HeLa-JC53	0.022 µM
Cc1ccnc2c1NC(=O)c1cccnc1N2C1CC1		MJ4 C		HEK293T	65.85 nM
Cc1ccc(-n2c(C)nnc2SCC(=O)Nc2ccc(OC(F)(F)F)cc2Br)cc1	RT-K103N Y181C	NL4-3		HeLa + HeLa-JC53	>10 µM
C[C@H]1CN(C(=O)Cn2cc(N3CCCS3(=O)=O)n3c(=O)c(O)c(-c4ncc(Cc5ccc(F)cc5)s4)nc23)C[C@H](C)O1	QHGS			HEK 293	0.5–1 µM
C=C(C)[C@@H]1CC[C@]2(C(=O)O)CC[C@]3(C)[C@H](CC[C@@H]4[C@@]5(C)CC=C(c6ccc(C(=O)NS(C)(=O)=O)cc6)C(C)(C)[C@@H]5CC[C@]43C)[C@@H]12	Gag P373S	NL4-3		MT-2	1 µM
Cc1ccc2c(C)cc(C)c(-n3c(C)nnc3SCC(=O)Nc3ccc(S(N)(=O)=O)cc3Cl)c2n1	RT-Y188L	NL4-3		HeLa + HeLa-JC53	0.011 µM
Cc1cn([C@H]2C[C@H](N=[N+]=[N-])[C@@H](CO)O2)c(=O)[nH]c1=O		81A		TZM-bl	0.001964 µM
CC(=O)[C@H]1/C=C(C)/C=C\C=C(/C)C(=O)C[C@@H]2[C@]1(C)CC[C@@]2(O)C(C)C			pseudotyped	293T	>30 µM
COc1cnc(-n2ccnn2)c2[nH]cc(C(=O)C(=O)N3CCN(C(=NC#N)c4ccccc4)CC3)c12		Luciferase reporter virus		HeLa(CD4+) + HeLa	<0.5 µM
COc1ccnc2[nH]cc(C(=O)C(=O)N3C4CC3CN(C(=O)c3ccccc3)C4)c12		6535		TZM-bl	70 µM
C=C(C)[C@@H]1CC[C@]2(CO)CC[C@]3(C)[C@H](CC[C@@H]4[C@@]5(C)CC=C(c6ccc(C(=O)O)cc6F)C(C)(C)[C@@H]5CC[C@]43C)[C@@H]12	Gag P373S	NL4-3		MT-2	1 µM
CSCc1cn(CC(=O)N2CC(C)CC(C)C2)c2nc(C(=O)NCc3ccc(Cl)c(Cl)c3)c(O)c(=O)n12	QHGS			HEK 293	1–10 µM
COc1cc2c3c(cc4cc(F)ccc4c3c1OC)N(CCN1CCCCC1)C2=O		NL4-3		TZM-bl	0.55 µM
C=C(C)[C@@H]1CC[C@]2(CO)CC[C@]3(C)[C@H](CC[C@@H]4[C@@]5(C)CC=C(c6ccc(O)c(F)c6)C(C)(C)[C@@H]5CC[C@]43C)[C@@H]12	Gag P373S	NL4-3		MT-2	1 µM
O=C(C(=O)N1CCN(C(=O)c2cc3ccccc3o2)CC1)c1c[nH]c2cccc(F)c12				HeLa + HELA CD4+/CCR5	<10 µM
CC1CC(C)CN(C(=O)Cn2cc(N3CCCS3(=O)=O)n3c(=O)c(O)c(C(=O)NCc4ccc(F)cc4S(=O)(=O)N(C)C)nc23)C1	QHGS			HEK 293	<0.5 µM
Cc1cn([C@H]2C[C@H](N=[N+]=[N-])[C@@H](CO)O2)c(=O)[nH]c1=O		NL4-3		TZM-bl	0.00938 µM
O=C(C(=O)N1CCN(C(=NC2CCCC2)c2ccccc2)CC1)c1c[nH]c2c(-n3ccnn3)ncc(F)c12		Luciferase reporter virus		HeLa(CD4+) + HeLa	<0.5 µM
O=C(C(=O)N1CCN(C(=O)c2ccccc2)CC1)c1c[nH]c2c(F)c(F)c(F)c(F)c12				HeLa + HELA CD4+/CCR5	<10 µM
CCOC(=O)c1cn([C@H](CO)C(C)C)c2nc(OCC)c(NCc3ccc(F)cc3)cc2c1=O		NL4-3	pseudotyped	HeLa	>0.1 µM
COc1cc2c3c(cc4cc(Cl)ccc4c3c1OC)N(CCN1CCCCC1)C2=O		NL4-3		TZM-bl	0.44 µM
C=C(C)[C@@H]1CC[C@]2(CO)CC[C@]3(C)[C@H](CC[C@@H]4[C@@]5(C)CC=C(c6ccc(C(=O)O)c(C(=O)O)c6)C(C)(C)[C@@H]5CC[C@]43C)[C@@H]12	Gag P373S	NL4-3		MT-2	1 µM
Cc1cc(S(N)(=O)=O)ccc1NC(=O)COc1ccc(Cl)cc1C(=O)c1cc(F)cc(C(F)(F)F)c1	RT-G190A	IIIB		HELA MAGI	0.0042 µM
CCN(CC)CCN1C(=O)c2cc(OC)c(OC)c3c2c1cc1cc(OC)c(OC)cc13		NL4-3		TZM-bl	3.73 µM
O=C(C(=O)N1CCN(C(=O)c2cnccn2)CC1)c1c[nH]c2cccc(Cl)c12				HeLa + HELA CD4+/CCR5	<10 µM
O=C(Cn1ccn2c(=O)c(O)c(-c3ncc(Cc4ccc(F)cc4)s3)nc12)N1CCOCC1	Q148H/G140S			HEK 293	>1 µM
Cc1cc(C#N)cc(C)c1Oc1nc(Nc2ccc(C#N)cc2)nc2ccsc12		L1001-K103N		HeLa	>0.1 µM
CC1CCCCN1C(=O)Cn1ccn2c(=O)c(O)c(-c3ncc(Cc4ccc(F)cc4)s3)nc12	QHGS			HEK 293	0.5–1 µM
CC(=O)OC[C@@H]1/C(C=O)=C\C=C(\C)CC[C@@H](O)[C@H]1[C@H](C)CCC=C(C)C			pseudotyped	293T	>30 µM
C[C@H]1[C@H](C)CC[C@]2(C(=O)O)CC[C@]3(C)C(=CC[C@@H]4[C@@]5(C)CC=C(c6ccc(C(=O)O)cc6)C(C)(C)[C@@H]5CC[C@]43C)[C@H]12	Gag P373S	NL4-3		MT-2	1 µM
COc1nc2c(cc1Cc1cccc(Cl)c1F)c(=O)c(C(=O)O)cn2[C@H](C)C(C)(C)C		NL4-3	pseudotyped	HeLa	>0.1 µM
Cc1ccc(-n2c(C)nnc2SCC(=O)Nc2ccccc2Br)c2ccccc12	RT-Y188L	NL4-3		HeLa + HeLa-JC53	0.069 µM
O=C(C(=O)N1CCN(C(=O)c2ccccc2)CC1)c1c[nH]c2cc(Cl)c(Cl)cc12				HeLa + HELA CD4+/CCR5	<10 µM
COc1cccc(C(=O)C2C(c3ccc(Cl)cc3)C(C#N)(C(N)=O)C3CCc4cc(C)ccc4N23)c1				CEM	10 µM
Cc1nnc(SCC(=O)Nc2ccc(S(N)(=O)=O)cc2Cl)n1-c1ccc(Cl)c2ccccc12	RT-Y188L	NL4-3		HeLa + HeLa-JC53	0.068 µM
O=C(C(=O)N1CCN(C(=NC2CC2)c2ccccc2)CC1)c1c[nH]c2cccc(F)c12		Luciferase reporter virus		HeLa(CD4+) + HeLa	>0.5 µM
Cc1cc(C)c(Nc2nc(Nc3ccc(C#N)cc3)nc3ccsc23)c(C)c1		Y181C		HeLa	0.01–0.1 µM
C=C(C)[C@@H]1CC[C@]2(C(=O)O)CC[C@]3(C)[C@H](CC[C@@H]4[C@@]5(C)CC=C(c6ccc(C(=O)O)c(F)c6)C(C)(C)[C@@H]5CC[C@]43C)[C@@H]12	Gag P373S	NL4-3		MT-2	1 µM
Cc1cc2c(cc1NCc1ccc(F)cc1)c(=O)c(C(=O)NCc1ccc(F)cc1)cn2[C@H](CO)C(C)(C)C		NL4-3	pseudotyped	HeLa	>0.1 µM
Cc1cc(C#N)cc(C)c1Nc1nc(Nc2ccc(C#N)cc2)nc2c(C)csc12		L1001-K103N		HeLa	>0.1 µM
COc1ccc2cc3c4c(cc(OC)c(OC)c4c2c1)C(=O)N3CCN1CCCCC1		NL4-3		TZM-bl	1.07 µg/mL
CC(=O)OC/C1=C/CC=C(C)CC[C@@H]([C@H](C)CCC=C(C)C)[C@@H](O)[C@H]1O			pseudotyped	293T	>30 µM

Repeating the first 7 entries:

smiles | changes | strain or isolate | conditions | cells | value
CSc1ccccc1NC(=O)CSc1nnc(C)n1-c1ccc(C)cc1 | RT-K103N Y181C | NL4-3 |  | HeLa + HeLa-JC53 | 0.12 µM
COc1cnc(-n2cnc(C)n2)c2[nH]cc(C(=O)C(=O)N3CCN(C(=O)c4ccccc4)CC3)c12 |  | NL4-3 |  | U-87 | 0.0024 µM
COc1cc2c(cc1Cc1ccc(F)cc1F)c(=O)c(C(=O)O)cn2[C@H](CO)C(C)(C)C |  | NL4-3 | pseudotyped | HeLa | <0.01 µM
CCCN=C(c1ccccc1)N1CCN(C(=O)C(=O)c2c[nH]c3ccccc23)CC1 |  | Luciferase reporter virus |  | HeLa(CD4+) + HeLa | >0.5 µM
CCO[C@H]1O[C@H](OCC)C2/C1=C\C/C=C(\C)C[C@@H](O)[C@H]2[C@H](C)CCC=C(C)C |  |  | pseudotyped | 293T | >30 µM
C[C@@H]1CN(C(=O)c2ccccn2)CCN1C(=O)C(=O)c1c[nH]c2c(F)ccc(F)c12 |  |  |  | HeLa + HELA CD4+/CCR5 | <10 µM
Cc1cc(C)c(Oc2nc(Nc3ccc(C#N)cc3)nc3c(C)csc23)c(C)c1 |  |  |  | HeLa | 0.01–0.1 µM